End groups of sequences in plain letters are not given here.

This data set in a line: general procedure: hybrid (solid and solution phase) peptide synthesis; Cys-SH resin (thioester fragment Fr-2t); N,N'-dicyclohexylcarbodiimide/hydroxybenzotriazole. Conditions: several disulfide bridges, sequence written open.

“IATSPYYACNCPNNCKHKKGSGCKYHSGPSDKSKVISGKCEWQGGQLNCIAT”: for the setting “coupling step”, the step yield is recorded as 40–42%. The oxidative folding yield (oxidative folding step) was 23–25%. In addition, the isolated yield (whole synthesis, overall) is listed as 2–3%.

Source of the values: article PMC5845869 (Frontiers in Microbiology, 2018).
